Results deposited as PubChem BioAssay AID1259414 (Drosophila RNAi Screening Center, 2018)

Screen: 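Genome-wide screen for host control of endosymbiont load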 (primary screen)
Cells: Drosophila JW18 cells infected with Wolbachia
Knock-down reagent: long dsRNA against Drosophila genes, 0.25 µg dsRNA per well of a 384-well plate
Timing: 5 days
Treatment: cells persistently infected with Wolbachia before knock-down; no added drug
Measured: 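Imaged fluorescence in situ signal for Wolbachia 23S rRNA per DAPI-counted host cell, given as a robust z-score within each plate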
Direction: Wolbachia per cell robust z: higher = more Wolbachia per host cell than the plate typical
Active means: 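Active if absolute robust z reaches 1.5 in two or more of three replicates, leaving out multi- or no-target dsRNAs, genes unexpressed in JW18 and A1 wells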
The deposit covers about 24,000 reagents; this is an unselected part of those with a known target gene and a result. Over the whole deposit, about 1,210 (5%) are marked active. 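Inactive calls also include excluded dsRNAs with several or no targets, genes unexpressed in JW18, and well A1, regardless of score.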 A plus sign joins genes that one reagent is predicted to hit.

| target gene | DRSC id | Wolbachia per cell robust z, rep 1 | Wolbachia per cell robust z, rep 2 | Wolbachia per cell robust z, rep 3 | Outcome |
| --- | --- | --- | --- | --- | --- |
| CG1113 (GeneID 40629) | DRSC12163 | 1.55 | 0.869 | 0.661 | inactive |
| hdm (GeneID 31705) | DRSC18013 | 0.182 | -1.83 | 0.78 | inactive |
| mdy (GeneID 44887) | DRSC01559 | -0.334 | -1.74 | -1.53 | active |
| mdy (GeneID 44887) | DRSC02250 | -8.62 | -0.129 | 1.19 | inactive |
| CG33257 (GeneID 2768960) | DRSC09917 | -0.611 | 1.21 | -0.262 | inactive |
| CG42649 (GeneID 10178935) | DRSC41371 | -0.763 | -0.962 | -2.78 | inactive |
| CG5390 (GeneID 34383) | DRSC02855 | 0.393 | 0.0892 | 1.95 | inactive |
| CG5390 (GeneID 34383) | DRSC27775 | -1.64 | -0.0511 | 0.565 | inactive |
| frac (GeneID 38850) | DRSC10867 | 0.851 | 0.848 | 0.814 | inactive |
| frac (GeneID 38850) | DRSC29239 | -7.29 | -1.06 | -0.5 | inactive |
| grp (GeneID 34993) | DRSC40694 | 0.0148 | 0.217 | 0.317 | inactive |
| Pex19 (GeneID 34630) | DRSC02839 | -0.651 | -10.4 | -0.573 | inactive |
| FER (GeneID 41118) | DRSC12735 | 0.288 | 0.173 | 0.109 | inactive |
| FER (GeneID 41118) | DRSC16673 | -1.28 | 0.0647 | -0.391 | inactive |
| FER (GeneID 41118) | DRSC29894 | -0.138 | 1.15 | 0.676 | inactive |
| CG14961 (GeneID 38414) | DRSC08420 | -1.07 | -0.0334 | -0.258 | inactive |
| Lgr1 (GeneID 42133) | DRSC16675 | 0.452 | -0.742 | -1.41 | inactive |
| CG17806 (GeneID 42142) | DRSC15276 | -1.76 | 0.292 | -0.0567 | inactive |
| CG3982 (GeneID 39084) | DRSC23139 | 0.857 | 0.25 | -2.73 | inactive |
| CG3982 (GeneID 39084) | DRSC26894 | 1.23 | 1.76 | 0.061 | inactive |
| Gr22d (GeneID 14462661) | DRSC21653 | 1.35 | -0.334 | 1.43 | inactive |
| Gr22d (GeneID 14462661) | DRSC25985 | -0.517 | 0.235 | -1.59 | inactive |
| Amy-p + Amy-d | DRSC21242 | -1.77 | -0.0671 | -0.261 | inactive |
| WDY (GeneID 26067056) | DRSC21229 | 0.506 | -0.9 | 0.4 | inactive |
| WDY (GeneID 26067056) | DRSC38768 | 1.84 | 0.423 | 2.84 | inactive |
| WDY (GeneID 26067056) | DRSC38774 | 1.46 | -3.59 | -1.15 | inactive |
| WDY (GeneID 26067056) | DRSC38780 | -4 | -0.362 | -3.66 | inactive |

Continued, starting with the last 6 of the part before.
| target gene | DRSC id | Wolbachia per cell robust z, rep 1 | Wolbachia per cell robust z, rep 2 | Wolbachia per cell robust z, rep 3 | Outcome |
| --- | --- | --- | --- | --- | --- |
| Gr22d (GeneID 14462661) | DRSC25985 | -0.517 | 0.235 | -1.59 | inactive |
| Amy-p + Amy-d | DRSC21242 | -1.77 | -0.0671 | -0.261 | inactive |
| WDY (GeneID 26067056) | DRSC21229 | 0.506 | -0.9 | 0.4 | inactive |
| WDY (GeneID 26067056) | DRSC38768 | 1.84 | 0.423 | 2.84 | inactive |
| WDY (GeneID 26067056) | DRSC38774 | 1.46 | -3.59 | -1.15 | inactive |
| WDY (GeneID 26067056) | DRSC38780 | -4 | -0.362 | -3.66 | inactive |
| Cda4 (GeneID 33144) | DRSC20623 | -1.17 | -1.05 | -0.285 | inactive |
| Cda4 (GeneID 33144) | DRSC20641 | 0.584 | 0.0446 | 0.662 | inactive |
| Cda4 (GeneID 33144) | DRSC20642 | 0.629 | 0.746 | 0.497 | inactive |
| CG4951 (GeneID 43355) | DRSC15682 | -0.673 | -0.633 | 0.26 | inactive |
| Rpt4R (GeneID 39351) | DRSC10791 | -0.242 | -0.74 | -0.67 | inactive |
| Rpt4R (GeneID 39351) | DRSC25928 | 0.707 | -0.31 | 1 | inactive |
| CG14113 (GeneID 50287) | DRSC10116 | 0.456 | 1.1 | 0.504 | inactive |
| Cpr65Au (GeneID 59158) | DRSC22738 | -0.0703 | -1.59 | -1.23 | inactive |
| CG13116 (GeneID 34288) | DRSC02214 | -2.82 | 0.95 | -1.88 | inactive |
| CG13116 (GeneID 34288) | DRSC21945 | -2.18 | -1.33 | -0.533 | inactive |
| CG13116 (GeneID 34288) | DRSC26916 | 0.056 | -0.291 | -1.82 | inactive |
| RhoGAP92B (GeneID 42371) | DRSC14507 | -3.76 | 0.116 | 1 | inactive |
| RhoGAP92B (GeneID 42371) | DRSC15637 | 0.72 | 0.347 | 0.118 | inactive |
| AdoR (GeneID 43583) | DRSC16556 | 0.439 | 0.941 | -0.486 | inactive |
| AdoR (GeneID 43583) | DRSC28071 | 0.0766 | -1.2 | 0.512 | inactive |
| corn (GeneID 38786) | DRSC11021 | 0.953 | 0.175 | 0.601 | inactive |
| corn (GeneID 38786) | DRSC21943 | -2.16 | -1.32 | -1.22 | inactive |
| corn (GeneID 38786) | DRSC27306 | -0.149 | -0.936 | -1.07 | inactive |
| CG17177 (GeneID 39601) | DRSC10257 | 0.00543 | -1.13 | -1.09 | inactive |
